# Test results taken from patent US7625917B2, “Thiolesters and uses thereof” (priority 1998, dated 2009).
# Test system: HIV-1RF
# Experiment: XTT cytoprotection assay (antiviral activity)
# Assay type: cell-based
# Details: IC50/EC50
# Text: One exemplary means to determine antiviral activity is with CEM-SS cells and virus (e.g., HIV-1RF) (MOI=0.01) using the XTT (2,3-bis[2-methoxy-4-nitro-5-sulfophenyl]-5-[(phenylamino)carbonyl]-2H-tetrazolium hydroxide) cytoprotection assay, as described by Rice (1993) PNAS 90:9721-9724, and Rice (1997) Antimicrob. Agents Chemother. 41:419-426. Briefly, cells are infected with HIV-1 RF (or other virus to be tested) in the presence of various dilutions of test compounds (thiolesters and controls). The cultures are incubated for seven days. During this time control cultures without protective compounds (i.e., compounds with anti-viral activity) replicate virus, induce syncytia, and result in about 90% cell death. The cell death is measured by XTT dye reduction. XTT is a soluble tetrazolium dye that measures mitochondrial energy output, similar to MTT. Positive controls using dextran sulfate (an attachment inhibitor) or 3′-Azido-2′-3′-dideoxythymidine, AZT (a reverse transcriptase inhibitor) are added to each assay. Individual assays are done in duplicate using a sister plate method.
# Effective antiviral concentrations providing 50% cytoprotection (EC50), and cellular growth inhibitory concentrations causing 50% cytotoxicity (IC50) are calculated.
Structure (SMILES),TI (Table 5),TI (Table 6),TI (Table 10),other results
Nc1cccc(S(=O)(=O)c2cccc(NC(=O)c3ccccc3SSc3ccccc3C(=O)Nc3cccc(S(=O)(=O)c4cccc(N)c4)c3)c2)c1 [Compound 35],–,–,–,TI (Table 4): 81.5
CC(=O)Nc1cccc(S(=O)(=O)c2cccc(NC(=O)c3ccccc3SSc3ccccc3C(=O)Nc3cccc(S(=O)(=O)c4cccc(NC(C)=O)c4)c3)c2)c1 [Compound 36],–,–,–,TI (Table 4): 95
CC(=O)NS(=O)(=O)c1ccc(NC(=O)c2cccc(NC(=O)CCCl)c2)cc1 [Compound 38],2.8,–,–,–
CC(=O)NS(=O)(=O)c1ccc(NC(=O)c2ccccc2SC(C)=O)cc1 [Compound 40],20.3,–,–,–
CC(=O)NS(=O)(=O)c1ccc(NC(=O)c2ccccc2SC(=O)c2ccccc2)cc1 [Compound 41],16.6,–,–,–
COc1ccc(C(=O)Sc2ccccc2C(=O)Nc2ccc(S(=O)(=O)NC(C)=O)cc2)cc1 [Compound 42],15.6,–,–,–
"CC(=O)NS(=O)(=O)c1ccc(NC(=O)c2ccccc2SC(=O)CCCCBr)cc1 [Compound 44, N-[2-(5-bromovaleroylthio)benzoyl]sulfacetamide]",49.2,49.2,–,–
"CC(=O)NS(=O)(=O)c1ccc(NC(=O)c2ccccc2SC(=O)CCCC[n+]2ccccc2)cc1 [Compound 45, N-[2-(5-pyridinio-valeroylthio)benzoyl]sulfacetamide bromide]",>51,>51,>51,–
O=C(CCCCBr)Sc1ccccc1C(=O)Nc1ccc(S(=O)(=O)c2ccc([N+](=O)[O-])cc2)cc1 [Compound 46],–,13.6,–,–
O=C(CCCC[n+]1ccccc1)Sc1ccccc1C(=O)Nc1ccc(S(=O)(=O)c2ccc([N+](=O)[O-])cc2)cc1 [Compound 47],–,>57,–,–
CC(=O)NS(=O)(=O)c1ccc(NC(=O)c2ccccc2SC(=O)CCC[n+]2ccccc2)cc1 [Compound 54],–,–,17.3,–
CC(=O)NS(=O)(=O)c1ccc(NC(=O)c2ccccc2SC(=O)CCCCC[n+]2ccccc2)cc1 [Compound 55],–,–,6.5,–
CC(=O)NS(=O)(=O)c1ccc(NC(=O)c2ccccc2SC(=O)CCCC[n+]2cccc(Cl)c2)cc1 [Compound 57],–,–,4.8,–
